Measured values from several laboratories, pooled; numbers as filed in NIAID ChemDB.

All rows: growth or infection tests; agent: HIV-2; cells: CEM; endpoint: EC50

ECn: concentration that inhibits the pathogen or its effect by n%. Rows are shuffled and stem from different studies. An empty or dashed field is not shown.

compound,strain or isolate,read by,result
Cc1cn([C@@H]2O[C@@H]3CN[C@@]4(OCc5ccccc5)CS(=O)(=O)O[C@@]34[C@H]2O[Si](C)(C)C(C)(C)C)c(=O)[nH]c1=O,ROD,-,>10 µM
O=C(c1cccc([N+](=O)[O-])c1)c1ccc2[nH]c(=O)oc2c1,ROD,syncytia,>8 µg/mL
CN[C@@H]1[C@H](O[C@@H]2OC[C@@H](O)[C@H](O)[C@H]2O)[C@@H](O)[C@H](O[C@H]2c3cc(C)c(C(=O)N[C@H](C)C(=O)O)c(O)c3-c3c(cc4c(c3O)C(=O)c3cc(OC)cc(O)c3C4=O)[C@@H]2O)O[C@@H]1C,ROD,p24 / ELISA,1.8 µM
NC12CC3CC(CC(C3)C1)C2,ROD,syncytia,>662 µM
Cc1nc2c(N)ncnc2n1[C@H]1CC[C@@H](CO)O1,-,cytopathic effect,>100 µg/mL
Cc1cccc(C)c1N1C(=O)c2ccc([N+](=O)[O-])cc2C1=O,ROD,syncytia,>667 µM
CO[C@@H]1[C@H](O)[C@@H](CO)O[C@H]1c1ccccc1,ROD,cytopathic effect,>100 µg/mL
CCO[C@]12CS(=O)(=O)O[C@@]13[C@@H](CN2)O[C@@H](n1cc(C)c(=O)[nH]c1=O)[C@@H]3O,ROD,-,>250 µM
CCCCCCC(=O)Oc1ccc(COP(=O)(OCc2ccc(OC(=O)CCCCCC)cc2)OP(=O)([O-])OC[C@@H]2CC[C@H](n3ccc(=O)[nH]c3=O)O2)cc1,ROD,syncytia,30 µM
CCc1c(C(=O)c2cc(C)cc(C)c2)n(CC2CC2)c(=O)[nH]c1=O,ROD,XTT,0.6 µM
CC[C@H](O)C1=C[C@@H](n2cnc3c(N)ncnc32)[C@H](O)[C@@H]1O,-,cytopathic effect,>200 µg/mL
CCCCCO[C@]12CS(=O)(=O)O[C@@]13[C@@H](CN2)O[C@@H](n1cc(C)c(=O)[nH]c1=O)[C@@H]3O[Si](C)(C)C(C)(C)C,ROD,-,>5 µM
O=C(c1cccc(Br)c1)c1ccc2[nH]c(=O)sc2c1,ROD,syncytia,8 µg/mL
Cc1cc(S(=O)(=O)Nc2nnc3c4ccccc4cnn23)c(S)cc1Cl,ROD,p24,7.8 µM
CCCCCCCCCCCC(=O)Oc1ccc(COP(=O)(OCc2ccc(OC(=O)CCCCCCCCCCC)cc2)OP(=O)([O-])OC[C@@H]2C=C[C@H](n3ccc(=O)[nH]c3=O)O2)cc1,ROD,syncytia,>50 µM
Cc1cn([C@@H]2O[C@@H]3CN[C@@]4(OCC5CCOC5)CS(=O)(=O)O[C@@]34[C@H]2O[Si](C)(C)C(C)(C)C)c(=O)[nH]c1=O,ROD,-,>50 µM
O=C(c1ccc(F)cc1)c1ccc2[nH]c(=O)oc2c1,ROD,syncytia,>40 µg/mL
C=C[C@@H](O)C1=C[C@@H](n2cnc3c(N)ncnc32)[C@H](O)[C@@H]1O,-,cytopathic effect,>40 µg/mL
OC[C@H]1O[C@@H](c2ccccc2)[C@H](O)[C@@H]1O,ROD,cytopathic effect,>100 µg/mL
O=C(c1cccc([N+](=O)[O-])c1)c1ccc2c(c1)sc(=O)n2Cc1ccccc1,ROD,syncytia,>1.6 µg/mL
CCCCCCCCCC[N+](C)(C)CCCNCc1c(O)cc2c(c1O)-c1cc(ccc1O)[C@H]1NC(=O)[C@@H]3NC(=O)C4NC(=O)[C@@H](Cc5ccc(c(Cl)c5)Oc5cc3cc(c5O)Oc3ccc(cc3Cl)[C@@H](O)[C@H](NC1=O)C(=O)N[C@@H]2C(=O)O)NC(=O)[C@H](N)c1ccc(O)c(c1)Oc1cc(O)cc4c1,EHO,syncytia,6.8 µM
O=C1c2ccc(Cl)cc2C(=O)N1C12CC3CC(CC(C3)C1)C2,ROD,syncytia,>110 µM
C[C@H](Cn1cnc2c(N)ncnc21)OCP(=O)(O)O,ROD,syncytia,3 µM
C=C[C@H](O)C1=C[C@@H](n2cnc3c(N)ncnc32)[C@H](O)[C@@H]1O,-,cytopathic effect,>200 µg/mL
Cc1cccc(C)c1N1C(=O)c2ccc(O)cc2C1=O,ROD,syncytia,>30 µM
CCCCC(=O)Oc1ccc(COP(=O)(OCc2ccc(OC(=O)CCCC)cc2)OP(=O)(O)OC[C@@H]2C=C[C@H](n3cc(C)c(=O)[nH]c3=O)O2)cc1,ROD,syncytia / microscopy,2.9 µM
CCCCCCCCCC(=O)Oc1ccc(COP(=O)(OCc2ccc(OC(=O)CCCCCCCCC)cc2)OP(=O)([O-])OC[C@@H]2C=C[C@H](n3ccc(=O)[nH]c3=O)O2)cc1,ROD,syncytia,20 µM
O=C(c1ccc2[nH]c(=O)oc2c1)c1ccccc1F,ROD,syncytia,>8 µg/mL
Cc1cn([C@H]2C[C@H](N=[N+]=[N-])[C@@H](CO)O2)c(=O)[nH]c1=O,ROD,syncytia,0.004 µM
CC(=O)n1c(=O)sc2cc(C(=O)c3cccc(F)c3)ccc21,ROD,syncytia,8 µg/mL
CCCCCCCCCCCC(=O)Oc1ccc(COP(=O)(OCc2ccc(OC(=O)CCCCCCCCCCC)cc2)OP(=O)(O)OC[C@@H]2C=C[C@H](n3cc(C)c(=O)[nH]c3=O)O2)cc1,ROD,syncytia / microscopy,0.35 µM
O=c1ccn([C@H]2C=C[C@@H](CO)O2)c(=O)[nH]1,ROD,syncytia,>250 µM
CCCCCCC(=O)Oc1ccc(COP(=O)(OCc2ccc(OC(=O)CCCCCC)cc2)OP(=O)(O)OC[C@@H]2C=C[C@H](n3cc(C)c(=O)[nH]c3=O)O2)cc1,ROD,syncytia / microscopy,1.1 µM
Cc1cccc2c1CP(=O)(OC[C@@H]1CC[C@H](n3ccc(=O)[nH]c3=O)O1)CC2,ROD,syncytia,>50 µM

Repeating the final 4 entries:

CCCCCCCCCCCC(=O)Oc1ccc(COP(=O)(OCc2ccc(OC(=O)CCCCCCCCCCC)cc2)OP(=O)(O)OC[C@@H]2C=C[C@H](n3cc(C)c(=O)[nH]c3=O)O2)cc1 ; strain or isolate: ROD ; read by: syncytia / microscopy ; result: 0.35 µM
O=c1ccn([C@H]2C=C[C@@H](CO)O2)c(=O)[nH]1 ; strain or isolate: ROD ; read by: syncytia ; result: >250 µM
CCCCCCC(=O)Oc1ccc(COP(=O)(OCc2ccc(OC(=O)CCCCCC)cc2)OP(=O)(O)OC[C@@H]2C=C[C@H](n3cc(C)c(=O)[nH]c3=O)O2)cc1 ; strain or isolate: ROD ; read by: syncytia / microscopy ; result: 1.1 µM
Cc1cccc2c1CP(=O)(OC[C@@H]1CC[C@H](n3ccc(=O)[nH]c3=O)O1)CC2 ; strain or isolate: ROD ; read by: syncytia ; result: >50 µM